Compound potency records, mixed from different reports. Data source: NIAID ChemDB in PubChem.

All rows: growth or infection tests; organism: HIV-1; read-out: EC50

Blank or dashed fields: not listed here. Rows are shuffled and stem from different studies. ECn is the concentration giving n% inhibition of infection, replication or growth.

structure	changes	method	strain or isolate	cell line	conditions	result
Cc1c(O)cccc1C(=O)N[C@@H](CSc1ccccc1)[C@H](O)CN1C[C@H]2CCCC[C@H]2C[C@H]1C(=O)NC(C)(C)C		cytopathic effect / MTT	NL4-3	MT-4		0.015 µM
CC1(C)[C@@H](O[C@H]2O[C@H](C(=O)O)[C@@H](O)[C@H](O)[C@H]2O[C@@H]2O[C@H](C(=O)O)[C@@H](O)[C@H](O)[C@H]2O)CC[C@]2(C)[C@H]3C(=O)C=C4[C@@H]5C[C@@](C)(C(=O)O)CC[C@]5(C)CC[C@@]4(C)[C@]3(C)CC[C@@H]12		RT activity		MT-4		170 µM
CC(C)CN(C[C@@H](O)[C@H](Cc1ccccc1)NC(=O)O[C@H]1CCOC1)S(=O)(=O)c1ccc(N)cc1		MTT	ROD	MT-2		0.34 µM
Cc1cn([C@H]2C[C@H](N=[N+]=[N-])[C@@H](CO)O2)c(=O)[nH]c1=O		cytopathic effect / XTT	SIKA	PBMC	clinical isolate	0.02 µM
Nc1nc(=O)n([C@@H]2CS[C@H](CO)O2)cc1F		plaque count	HXB2	HELA/CD4 + HELA CD4+		0.105 µM
Cc1cc(-c2ccc(N=Nc3c(S(=O)(=O)O)cc4cc(S(=O)(=O)O)cc(N)c4c3O)c(C)c2)ccc1N=Nc1c(S(=O)(=O)O)cc2cc(S(=O)(=O)O)cc(N)c2c1O		cytopathic effect / XTT	RF	CEM + CEM-SS		48 µM
c1ncc(CN2CCCNCCNCCCNCC2)cc1CN1CCCNCCNCCCNCC1		cytopathic effect / MTT	RF	MT-4		0.08 µg/mL
COC(=O)[C@H](C)NP(=O)(OC[C@@H]1C=C[C@H](n2cc(C)c(=O)[nH]c2=O)O1)Oc1ccc(Br)cc1	RT-D67N T69N K70R M184V T215F K219Q	p24	7295-1 NRTI resistant recombinant	PBMC		0.043 µM
O=S1(=O)NC(Cc2cccc3ccccc23)=CC(=NC2CCN(Cc3ccc(Br)cc3)CC2)N1	RT-K103N Y181C	MTT	RES056	MT-4		>83.78 µM
Fc1cccc(F)c1C1SCc2nc3ccccc3n21	RT-Y181C	cytopathic effect / XTT	IIIB	CEM		13.87 µM
Cc1cn([C@H]2C=C[C@@H](CO)O2)c(=O)[nH]c1=O			NL4-3	Primary T lymphocytes		1.245 µM
c1cc(CCN2CCCNCCNCCCNCC2)ccc1CCN1CCCNCCNCCCNCC1		cytopathic effect / MTT	NL4-3	MT-4		30.4 µg/mL
Nc1nc(N)c2ncn([C@H]3CO[C@@H](CO)O3)c2n1	RT-L74V	cytopathic effect / XTT		MT-2		80 µM
Fc1cccc(F)c1[C@@H]1SCc2nc3ccccc3n21	RT-Y181C	cytopathic effect / XTT	IIIB	CEM		≥34.7 µM
Nc1nc2c(ncn2[C@H]2CO[C@@H](CO)O2)c(=O)[nH]1		p24	LAI	PBMC		0.14 µM
Nc1nc(=O)n([C@@H]2CS[C@H](CO)O2)cc1F	K103N/M184V	recombinant virus assay	Clinical isolate	MT-2		>13.3 µM
Cc1cn([C@H]2C[C@H](N=[N+]=[N-])[C@@H](CO)O2)c(=O)[nH]c1=O		p24	CC1 Clinical isolates			0.13 µM
c1ccc(-c2cc(CN3CCCNCCNCCCNCC3)cc(CN3CCCNCCNCCCNCC3)c2)cc1		cytopathic effect / MTT	RF	MT-4		0.1 µg/mL
Cc1cn([C@H]2C[C@H](N=[N+]=[N-])[C@@H](CO)O2)c(=O)[nH]c1=O	RT-M184I	cytopathic effect / MTT	RF	MT-4		0.015 µM
Cc1cn([C@H]2C[C@H](N=[N+]=[N-])[C@@H](CO)O2)c(=O)[nH]c1=O		cytopathic effect / XTT	LAI	MT-2		0.35 µM
CC(C)CN(C[C@@H](O)[C@H](Cc1ccccc1)NC(=O)O[C@H]1CCOC1)S(=O)(=O)c1ccc(N)cc1		luciferase / recombinant virus assay	NL4-3 WT	HEK 293 + 293 Cells		0.02 µM
CS(=O)(=O)c1ccc(CN2CCC(N=C3C=C(Cc4cccc5ccccc45)NS(=O)(=O)N3)CC2)cc1		MTT	IIIB	MT-4		118 µM
C1CNCCNCCCN2CCCNCCNCCCN(C1)CC2		cytopathic effect / MTT	AOM	MT-4		86.7 µg/mL
O=S1(=O)NC(Cc2cccc3ccccc23)=CC(=NC2CCN(Cc3c(Cl)cccc3Cl)CC2)N1	RT-K103N Y181C	MTT	RES056	MT-4		>54.73 µM
Nc1ccn([C@@H]2CS[C@H](CO)O2)c(=O)n1	RT-M41L T69ins L74V M184V L210W T215Y	p24	52534-2 NRTI resistant recombinant	PBMC		>10 µM
Fc1c(F)c(CN2CCCNCCNCCCNCC2)c(F)c(F)c1CN1CCCNCCNCCCNCC1		cytopathic effect / MTT	168.10	SupT1 + Sup-T1		0.02 µg/mL
Fc1cccc(F)c1[C@H]1SCc2nc3ccccc3n21		cytopathic effect	ADP/141	MT-4		0.14 µM
c1ccc2c(CN3CCCNCCNCCCNCC3)cc(CN3CCCNCCNCCCNCC3)cc2c1	AMD3100-resistant	cytopathic effect / MTT	NL4-3	MT-4		>25 µg/mL
CC(=O)c1ccc(CN2CCC(N=C3C=C(Cc4cccc5ccccc45)NS(=O)(=O)N3)CC2)cc1	RT-K103N Y181C	MTT	RES056	MT-4		>106 µM
c1cc(CN2CCCNCCCNCCNCCC2)cc(CN2CCCNCCCNCCNCCC2)c1	AMD3100-resistant	cytopathic effect / MTT	NL4-3	MT-4		>25 µg/mL
CC(C)[C@H](NC(=O)c1ccc2ccccc2n1)C(=O)N[C@@H](Cc1ccccc1)[C@H](O)CN1CC[C@@H](OCc2ccncc2)C[C@H]1C(=O)NC(C)(C)C		p24 / ELISA / antigen	NEVR	C8166		0.0014 µM
Cc1cn([C@H]2C=C[C@@H](CO)O2)c(=O)[nH]c1=O	K103N/M184V	recombinant virus assay	Clinical isolate	MT-2		0.336 µM
Cc1nnc(C(=O)NC(C)(C)c2nc(C(=O)NCc3ccc(F)cc3)c(O)c(=O)n2C)o1	+Vpx		NL4-3	Jurkat cells		0.007 µM
Cc1cn([C@H]2C[C@H](N=[N+]=[N-])[C@@H](CO)O2)c(=O)[nH]c1=O		cytopathic effect / XTT	LAV	CEM + CEM-SS		0.0005 µM
O=[N+]([O-])c1ccc(CN2CCC(N=C3C=C(Cc4cccc5ccccc45)NS(=O)(=O)N3)CC2)cc1		MTT	IIIB	MT-4		25.26 µM
Cc1cccc(C)c1OCC(=O)N[C@@H](Cc1ccccc1)[C@@H](O)C[C@H](Cc1ccccc1)NC(=O)[C@H](C(C)C)N1CCCNC1=O		p24		PBMC	clinical isolate, multidrug-resistant	0.41 µM
COc1cc(CN2CCCNCCNCCCNCC2)c(OC)cc1CN1CCCNCCNCCCNCC1		cytopathic effect / MTT	AOM	MT-4		0.03 µg/mL
Nc1nc(NC2CC2)c2ncn([C@H]3C=C[C@@H](CO)C3)c2n1	+Vpx		NL4-3	MDM		0.003 µM
O=C1O[C@H]2[C@@H]3OC(=O)c4cc(O)c(O)c(O)c4-c4c(cc(O)c(O)c4O)C(=O)OC[C@H]2O[C@@H](OC(=O)c2cc(O)c(O)c(O)c2)[C@@H]3OC(=O)c2cc(O)c(O)c3c2[C@@H]2C1=CC(=O)[C@](O)(O3)C2(O)O	RT-M41I L74V V106A T215V		NRTI resistant (RT M41I L74V V106A T215V) ARP146	MAGI		0.71 µg/mL
Cc1ccc(NC(=O)Nc2ccc(-c3ccc(NC(=O)Nc4ccc(-c5ccc(NC(=O)Nc6ccc(-c7ccc(NC(=O)Nc8ccc(-c9ccc(NC(=O)Nc%10ccc(-c%11ccc(NC(=O)Nc%12ccc(-c%13ccc(NC(=O)Nc%14ccc(C)cc%14)cc%13S(=O)(=O)O)c(S(=O)(=O)O)c%12)cc%11S(=O)(=O)O)c(S(=O)(=O)O)c%10)cc9S(=O)(=O)O)c(S(=O)(=O)O)c8)cc7S(=O)(=O)O)c(S(=O)(=O)O)c6)cc5S(=O)(=O)O)c(S(=O)(=O)O)c4)cc3S(=O)(=O)O)c(S(=O)(=O)O)c2)cc1		p24	RF	MT-4		0.41 µM
Cc1ccnc2c1NC(=O)c1cccnc1N2C1CC1			NL4-3	MT-4		0.237 µM